Results: patent publication US12084473B2, “β-D-2′-deoxy-2′-α-fluoro-2′-β-C-substituted-2-modified-N6-substituted purine nucleotides for HCV treatment” (Atea Pharmaceuticals, Inc., priority 2015, dated 2024)

System: HCV genotype 1b luciferase reporter replicon
Assay type: cell-based
Details: TC50 over EC50
Procedure: The plates were cultured for 24 hours prior to the addition of compounds. Six serial one half log dilutions of the test articles (high test concentration of 100.0 μM or high test concentration of 1.0 μM) and human interferon-alpha2b (high test 10.0 U/ml) were prepared in cell culture medium and added to the cultured cells in triplicate wells for each dilution. Six wells in the test plates received medium alone as an untreated control. Following 72 hours of culture in the presence of compound, one of the plates was used for the determination of cytotoxicity by staining with XTT and the other for antiviral efficacy by determination of luciferase reporter activity. Cytotoxicity and efficacy data were collected and imported into a customized Excel workbook for determination of the TC50 and EC50 values. […] The y-axis is the percent of virus control and the x-axis is the concentration of drug in μM. […] The y-axis is the percent of virus control and the x-axis is the concentration of drug in M.

sofosbuvir [reference compound] was tested. Which therapeutic index did it give?
Its therapeutic index is “greater than 1,920”.

How did the therapeutic index turn out when `CC(C)OC(=O)[C@H](C)N[P@](=O)(OCC1O[C@@H](n2cnc3c(N(C)C)nc(N)nc32)[C@](C)(F)[C@@H]1O)Oc1ccccc1` (stereo partly drawn) [Compound 25, isopropyl ((((S)-(2R,3R,4R,5R)-5-(2-amino-6-(dimethylamino)-9H-purin-9-yl)-4-fluoro-3-hydroxy-4-methyltetrahydrofuran-2-yl)methoxy)-phenoxy-phosphoryl)-L-alaninate] was run?
The therapeutic index was “greater than 25,000”.

How did the therapeutic index turn out when `CNc1nc(N)nc2c1ncn2[C@@H]1OC(CO[P@@](=O)(N[C@@H](C)C(=O)OC(C)C)Oc2ccccc2)[C@@H](O)[C@@]1(C)F` (stereo partly drawn) [Compound 5-2] was run?
The therapeutic index was “greater than 25,000”.
